# Patent US5055459A, “Selective elimination of malignant cells from bone marrow by bis (acyloxy) propylphosphoramidates” (Board of Regents, The University of Texas, priority 1989, dated 1991)
# What was measured:
# [1] = test system: L1210 lymphatic leukemia cells; test: In vitro cytotoxicity to L1210 lymphatic leukemia cells, 72 hr, MTT (Table 2); type: cell-based, murine; conditions: concentration that kills 50% of the cells; 72 hr at 37° C.; concentration range 0.5-20 microgram/ml
# [2] = test system: cyclophosphamide-resistant L1210 and P-388 cell-lines; conditions: cited from earlier work
compound,measurement,setting,value
NP(=O)(O)N(CCCl)CCCl,ED50,[1],18.0 microgram/ml
same,potentiation by aldehyde dehydrogenase inhibitors,[2],no potentiation was observed
